Publication PMC12714728 (2025)

Key:
[1] = biological target: H1N1 A/California/07/2009 hemagglutinin ectodomain, biotinylated HA0 (influenza A virus A/California/07/2009 …, biotin on the BirA site); assay: SPR
[2] = biological target: H1N1 A/New Caledonia/20/1999 hemagglutinin ectodomain, biotinylated HA0 (influenza A virus A/New …, biotin on the BirA site); assay: SPR

Binder: CYRDPLGVAGEMC (disulfide between the two Cys (sidechain-sidechain cyclization)) [cyclic peptide CP13]
- koff [1]: 1.49 s⁻¹
- koff [2]: 0.81 s⁻¹
